In patent publication US20090318341A1 (Amgen, published 2009):

B1: FcLoop-G4-OSK-G2 (Fc fusion)
chain: MDKTHTCPPCPAPELLGGPSVFLFPPKPKDTLMISRTPEVTCVVVDVSHEDPEVKFNWYVDGVEVHNAKTKPREEQYNSTYRVVSVLTVLHQDWLNGKEYKCKVSNKALPAPIEKTISKAKGQPREPQVYTLPPSRDELGGGGGVIINVKCKISRQCLEPCKKAGMRFGKCMNGKCHCTPKGGTKNQVSLTCLVKGFYPSDIAVEWESNGQPENNYKTTPPVLDSDGSFFLYSKLTVDKSRWQQGNVFSCSVMHEALHNHYTQKSLSLSPGK
B2: FcLoop-G2-OSK-G2 (Fc fusion)
chain: MDKTHTCPPCPAPELLGGPSVFLFPPKPKDTLMISRTPEVTCVVVDVSHEDPEVKFNWYVDGVEVHNAKTKPREEQYNSTYRVVSVLTVLHQDWLNGKEYKCKVSNKALPAPIEKTISKAKGQPREPQVYTLPPSRDELGGGVIINVKCKISRQCLEPCKKAGMRFGKCMNGKCHCTPKGGTKNQVSLTCLVKGFYPSDIAVEWESNGQPENNYKTTPPVLDSDGSFFLYSKLTVDKSRWQQGNVFSCSVMHEALHNHYTQKSLSLSPGK
B3: FcLoop-G2-ShK-G2 (Fc fusion)
chain: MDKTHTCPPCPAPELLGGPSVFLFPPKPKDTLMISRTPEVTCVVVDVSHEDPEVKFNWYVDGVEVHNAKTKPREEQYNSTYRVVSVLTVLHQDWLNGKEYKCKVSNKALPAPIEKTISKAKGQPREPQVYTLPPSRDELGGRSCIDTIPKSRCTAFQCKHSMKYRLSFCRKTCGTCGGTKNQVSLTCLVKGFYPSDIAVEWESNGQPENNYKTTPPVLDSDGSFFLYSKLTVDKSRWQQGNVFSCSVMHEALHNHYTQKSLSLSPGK
B4: 20k PEG-L2-6H-L3-CH2-L10-OsK1(1-38) (Fc fusion)
chain: MGGHHHHHHGGGPSVFLFPPKPKDTLMISRTPEVTCVVVDVSHEDPEVKFNWYVDGVEVHNAKTKPREEQYNSTYRVVSVLTVLHQDWLNGKEYKCKVSNKALPAPIEKTISGGGGSGGGGSGVIINVKCKISRQCLEPCKKAGMRFGKCMNGKCHCTPK
B5: L2-6H-L3-CH2-L10-OsK1(1-38) (Fc fusion)
chain: B4 chain

Target: human Kv1.3 voltage-gated potassium channel (human, UniProt P22001 1-575)
Test: cell-based or functional assay

Row | Binder | WB/IFNg (IC50, nM), human whole blood assay [nM] | WB/IL-2 (IC50, nM), human whole blood assay [nM]
1 | B1 | 0.195 | 0.15
2 | B2 | 0.056 | 0.028
3 | B3 | 0.119 | 0.109
4 | B4 | 50.1 | 
5 | B5 | 55.2 | 
